Laboratory results: US20230272054A1, “COMBINATION THERAPIES FOR THE TREATMENT AND PREVENTION OF BIOFILMS” (priority 2020, published 2023)

Key:
[1] = tested on: B. cenocepacia; test: Murine model of lung infection by B. cenocepacia, bacterial burden; conditions: 10^7 CFU i.t.; for bacterial burden within the lungs (BAL CFU), treatment: 0.2 nmol i.t. at 24 hpi, 72 hpi; for bacterial burden within the lungs (BAL CFU), prevention: 0.2 nmol i.t. at time of challenge, 18 hpi
[2] = tested on: UPEC biofilms; conditions: 24 h UPEC biofilms, rHMGB1 200 nM, 16 h
[3] = tested on: NTHI biofilms; test: NTHI biofilms incubated with rHMGB1 alone or with antibiotics, planktonic and biofilm CFU; conditions: 24 h NTHI biofilms, rHMGB1 200 nM alone, 16 h
[4] = tested on: macrophages; test: Phagocytosis assay, pHrodo red E. coli bioparticles; conditions: 5 μg/ml protein 2 h, then pHrodo red E. coli bioparticles 2 h

Row | Molecule | bacterial burden within the lungs (BAL CFU), treatment [1] | bacterial burden within the lungs (BAL CFU), prevention [1] | bacteria in the planktonic state [2] | shift of NTHI from biofilm-residence into the planktonic state [3] | phagocytic capacity of macrophages [4]
1 | rHMGB1: recombinant HMGB1 derived from a human, expressed and purified in E. coli, SEQ ID NO: 51; comparator to mHMGB1 (protein, listed as Homo sapiens) MGKGDPKKPRGKMSSYAFFVQTCREEHKKKHPDASVNFSEFSKKCSERWKTMSAKEKGKFEDMAKADKARYEREMKTYIPPKGETKKKFKDPNAPKRPPSAFFLFCSEYRPKIKGEHPGLSIGDVAKKLGEMWNNTAADDKQPYEKKAAKLKEKYEKDIAAYRAKGKPDAAKKGVVKAEKSKKKKEEEEGEEDEEDEEEEEDEEDEDEEEDDDDE | significantly facilitated the clearance of B. cenocepacia from the lungs | significantly facilitated the clearance of B. cenocepacia from the lungs | induced the partitioning of bacteria from biofilm residence into the planktonic state | induced a shift of bacteria from biofilm-residence into the planktonic state | slight reduction in phagocytosis
2 | mHMGB1: recombinant human HMGB1 with engineered single amino acid mutation C45S, SEQ ID NO: 52 (protein, mHMGB1 (C45S)) MGKGDPKKPRGKMSSYAFFVQTCREEHKKKHPDASVNFSEFSKKSSERWKTMSAKEKGKFEDMAKADKARYEREMKTYIPPKGETKKKFKDPNAPKRPPSAFFLFCSEYRPKIKGEHPGLSIGDVAKKLGEMWNNTAADDKQPYEKKAAKLKEKYEKDIAAYRAKGKPDAAKKGVVKAEKSKKKKEEEEGEEDEEDEEEEEDEEDEDEEEDDDDE | significantly facilitated the clearance of B. cenocepacia from the lungs | significantly facilitated the clearance of B. cenocepacia from the lungs | – | – | –
